# Assay results from patent US20120329717A1, “Omega conotoxin peptides” (published 2012).
# Molecular target: recombinant N-type (Cav2.2) VGCC α1B-b/α2δ1/β3 expressed in Xenopus oocytes (rat; rabbit) (UniProt Q02294)
# Experiment: cell-based or functional assay
substance,measurement,value
ω-conotoxin CVIF (peptide),fraction of current recovered from block (100 nM) at -65 mV HP,20.3%
same,fraction of current recovered from block (100 nM) at -125 mV HP,99%
